Measured values from several laboratories, pooled; numbers as filed in NIAID ChemDB.

Shared fields: growth or infection tests; agent: Aspergillus fumigatus

ECn: concentration that inhibits the pathogen or its effect by n%. Rows are shuffled and stem from different studies. Two numbers with a dash give a range or band. A number after MIC or MFC names an inhibition level or a share of isolates. Blank or dashed fields: not listed here.

structure,endpoint,read by,strain,setting,result
Cc1ccc([C@H]2SC(C)C(=O)N2c2nc(N3CCN(C)CC3)n[nH]2)cc1,MIC,broth dilution,168.95,-,10 µg/mL
CCCCCOc1ccc(-c2cc(-c3ccc(C(=O)N[C@H]4C[C@@H](O)[C@@H](O)NC(=O)[C@@H]5[C@@H](O)[C@@H](C)CN5C(=O)[C@H]([C@H](O)CC(N)=O)NC(=O)[C@H]([C@H](O)[C@@H](O)c5ccc(O)c(OS(=O)(=O)O)c5)NC(=O)[C@@H]5C[C@@H](O)CN5C(=O)[C@H]([C@@H](C)O)NC4=O)cc3)no2)cc1,Geometric mean MIC,-,17 isolates,-,0.008 µg/mL
CCC(C)CC(C)CCCCCCCCC(=O)N[C@H]1C[C@@H](O)[C@H](NCCN)NC(=O)[C@@H]2[C@@H](O)CCN2C(=O)[C@H]([C@H](O)CCN)NC(=O)[C@H]([C@H](O)[C@@H](O)c2ccc(O)cc2)NC(=O)[C@@H]2C[C@@H](O)CN2C(=O)[C@H]([C@@H](C)O)NC1=O,Geometric mean MEC,-,26 isolates,-,0.31 µg/mL
COc1cc2ccnc3c2c(c1OC(=O)c1ccccc1C)N(C)C=C3,EC50,-,-,-,>15 µg/mL
N=c1oc2ccccc2c2csc(N)c12,MIC,broth dilution,-,-,16 µg/mL
O=C(NCc1ccc(F)cc1)c1ccccc1O,Geometric mean MIC,-,231,-,392.1 µM
CN(Cc1ccc(S(=O)(=O)N2CCOCC2)cc1)CC(O)(Cn1cncn1)c1ccc(F)cc1F,MIC,resazurin,98 003,-,3.25 µg/mL
CCC(C)CC(C)CCCCCCCCC(=O)N[C@H]1C[C@@H](O)[C@H](NCCN)NC(=O)[C@@H]2[C@@H](O)CCN2C(=O)[C@H]([C@H](O)CCN)NC(=O)[C@H]([C@H](O)[C@@H](O)c2ccc(O)cc2)NC(=O)[C@@H]2C[C@@H](O)CN2C(=O)[C@H]([C@@H](C)O)NC1=O,MIC,-,28 isolates,-,0.25 µg/mL
CCCc1ccc(NS(=O)(=O)c2ccc(CN(C)CC(O)(Cn3cncn3)c3ccc(F)cc3F)cc2)cc1,MIC,resazurin,98 003,-,1.56 µg/mL
CC[C@@H]([C@H](C)O)n1ncn(-c2ccc(N3CCN(c4ccc(OC[C@@H]5CO[C@@](Cn6cncn6)(c6ccc(F)cc6F)C5)cc4)CC3)cc2)c1=O,MIC50,-,12 strains,-,0.12 µg/mL
CN(Cc1ccc(S(N)(=O)=O)cc1)CC(O)(Cn1cncn1)c1ccc(F)cc1F,MIC,resazurin,98 003,-,2.45 µg/mL
N#Cc1ccc(Nc2nc(Oc3ncnc4ccccc34)nc(N3CCN(c4ccccn4)CC3)n2)cc1C(F)(F)F,MIC,-,MTCC 343,-,>100 µg/mL
Cc1ccc(C(C)C)c(O)c1,MIC,-,CECT2071,-,0.16 µg/mL
CCC(C)n1ncn(-c2ccc(N3CCN(c4ccc(OC[C@H]5CO[C@](Cn6cncn6)(c6ccc(Cl)cc6Cl)O5)cc4)CC3)cc2)c1=O,MIC50,-,17 isolates,-,0.13 µg/mL
CN(Cc1ccc(S(=O)(=O)Nc2ccccc2)cc1)CC(O)(Cn1cncn1)c1ccc(F)cc1F,MIC,resazurin,98 003,-,3.08 µg/mL
COc1cc(O)c2c(c1)C(=O)c1c(cc3c(c1O)-c1c(cc(C)c(C(=O)N[C@H](C)C(=O)O)c1O)[C@H](O[C@@H]1O[C@H](C)[C@H](O)[C@H](O[C@@H]4OC[C@@H](O)[C@H](O)[C@H]4O)[C@H]1O)[C@H]3O)C2=O,MIC,-,5 isolates,-,2.5–5 µg/mL
COC(=O)/C=C/c1ccccc1,MIC,broth dilution / resazurin,-,-,250 µg/mL
CN1CCN(c2n[nH]c(N3C(=O)CS[C@@H]3c3ccc4c(c3)OCO4)n2)CC1,MIC,broth dilution,182.99,-,50 µg/mL
O=c1c(N2CCOCC2)c(N2CCN(S(=O)(=O)Cc3ccccc3)CC2)cnn1-c1ccccc1,MIC,broth dilution,ND231,-,6.25 µg/mL
S=C(S)n1nnc2ccccc21,EC50,broth dilution / absorbance,-,48 h,>50 µg/mL
COc1ccc(CNC(=O)c2ccccc2O)cc1,Geometric mean MIC,-,231,-,500 µM
C[C@H]1[C@H](O)[C@@H](C)/C=C/C=C/C=C/C=C/C=C/C=C/C=C/[C@H](O[C@@H]2O[C@H](C)[C@@H](O)[C@H](N)[C@@H]2O)C[C@@H]2O[C@](O)(C[C@@H](O)C[C@@H](O)CC[C@H](O)[C@@H](O)C[C@@H](O)CC(=O)O[C@H]1C)C[C@H](O)[C@H]2C(=O)O,MFC90,-,19 isolates,-,4 µg/mL
N#Cc1ccc(Nc2nc(Oc3ncnc4ccccc34)nc(N3CCN(c4ccccc4)CC3)n2)cc1C(F)(F)F,MIC,-,MTCC 343,-,>100 µg/mL
CCCCc1ccc(C(=O)Oc2c(OC)cc3ccnc4c3c2N(C)C=C4)cc1,MIC,-,-,-,5 µg/mL
CCC(C)n1ncn(-c2ccc(N3CCN(c4ccc(OC[C@H]5CO[C@](Cn6cncn6)(c6ccc(Cl)cc6Cl)O5)cc4)CC3)cc2)c1=O,MIC50,-,12 strains,-,1 µg/mL
C[C@H]1[C@H](O)[C@@H](C)/C=C/C=C/C=C/C=C/C=C/C=C/C=C/[C@H](O[C@@H]2O[C@H](C)[C@@H](O)[C@H](N)[C@@H]2O)C[C@@H]2O[C@](O)(C[C@@H](O)C[C@@H](O)CC[C@H](O)[C@@H](O)C[C@@H](O)CC(=O)O[C@H]1C)C[C@H](O)[C@H]2C(=O)O,MIC90,-,94 isolates,-,2 µg/mL
C[C@@H](n1ccn(-c2ccc(F)cc2)c1=O)C(O)(Cn1cncn1)c1ccc(F)cc1F,MIC,-,IFO6344,-,16 µg/mL
CCC(C)CC(C)CCCCCCCCC(=O)N[C@H]1C[C@@H](O)[C@H](NCCN)NC(=O)[C@@H]2[C@@H](O)CCN2C(=O)[C@H]([C@H](O)CCN)NC(=O)[C@H]([C@H](O)[C@@H](O)c2ccc(O)cc2)NC(=O)[C@@H]2C[C@@H](O)CN2C(=O)[C@H]([C@@H](C)O)NC1=O,MIC,broth dilution,ND158,-,0.03 µg/mL
C[C@H]1[C@H](O)[C@@H](C)/C=C/C=C/C=C/C=C/C=C/C=C/C=C/[C@H](O[C@@H]2O[C@H](C)[C@@H](O)[C@H](N)[C@@H]2O)C[C@@H]2O[C@](O)(C[C@@H](O)C[C@@H](O)CC[C@H](O)[C@@H](O)C[C@@H](O)CC(=O)O[C@H]1C)C[C@H](O)[C@H]2C(=O)O,MIC,-,-,-,80 µg/mL
O=C(Nc1c(F)cccc1F)OCCCN1CCN(c2nc3ccccc3s2)CC1,MIC,-,CF1083,-,1.1 µg/mL
CN1CCN(c2nc(Nc3ccc(C#N)c(C(F)(F)F)c3)nc(Oc3ncnc4ccccc34)n2)CC1,MIC,-,MTCC 343,-,>100 µg/mL
O=C(N/N=C/c1cc([N+](=O)[O-])ccc1O)c1ccc(I)cc1,MIC,-,G10,-,1.6 µg/mL
C[C@@H](N1CCN(c2ccc(C(F)(F)F)cc2)C1=O)C(O)(Cn1cncn1)c1ccc(F)cc1F,MIC,-,437,-,1 µg/mL
CC1=CC[C@@H]2[C@H](C1)C2(C)C,MIC,-,F17,-,0.16 µg/mL
COc1cc2ccnc3c2c(c1OC(=O)c1ccc(C(C)(C)C)cc1)N(C)C=C3,EC50,-,-,-,10 µg/mL
C[C@@H](n1ccn(-c2ccc(OCC(F)(F)C(F)F)cc2)c1=O)C(O)(Cn1cncn1)c1ccccc1F,MIC,-,IFO6344,-,4 µg/mL
CCC(C)n1ncn(-c2ccc(N3CCN(c4ccc(OC[C@H]5CO[C@](Cn6cncn6)(c6ccc(Cl)cc6Cl)O5)cc4)CC3)cc2)c1=O,MIC90,-,-,-,0.1 µg/mL
CN(Cc1ccc(NS(=O)(=O)c2ccc([N+](=O)[O-])cc2)cc1)CC(O)(Cn1cncn1)c1ccc(F)cc1F,MIC,resazurin,98 003,-,3.57 µg/mL
CCCC[C@@H](C)/C=C(C)/C=C(\C)C(=O)N/C(=C/[C@@](C)(O)/C=C/C=C/C=C/C(=O)NC1=C(O)CCC1=O)C(=O)[C@@H]1CO1,MIC,broth dilution,1,-,200 µM
CC(C)NS(=O)(=O)c1ccc(CN(C)CC(O)(Cn2cncn2)c2ccc(F)cc2F)cc1,MIC,resazurin,98 003,-,2.35 µg/mL
C[C@@H](N1CCN(c2ccc(OCC(F)(F)C(F)F)cc2)C1=O)C(O)(Cn1cncn1)c1ccc(F)cc1F,MIC,-,TIMM1728,-,0.5 µg/mL
c1ccc(-c2ccc(C(c3ccccc3)n3ccnc3)cc2)cc1,MIC,broth dilution,ATCC 9142,-,150 µg/mL
C[C@@H](n1ncn(-c2ccc(OCC(F)(F)C(F)F)cc2)c1=O)[C@](O)(Cn1cncn1)c1ccc(F)cc1F,MIC,-,IFO6344,-,2 µg/mL
N#Cc1ccc(Nc2nc(Oc3ncnc4ccccc34)nc(N3CCN(C(c4ccccc4)c4ccccc4)CC3)n2)cc1C(F)(F)F,MIC,-,MTCC 343,-,25 µg/mL
COc1cc2ccnc3c2c(c1OC(=O)c1ccc(F)c(F)c1)N(C)C=C3,EC50,-,-,-,>15 µg/mL

The last 4 rows once more:

structure	endpoint	read by	strain	setting	result
c1ccc(-c2ccc(C(c3ccccc3)n3ccnc3)cc2)cc1	MIC	broth dilution	ATCC 9142	-	150 µg/mL
C[C@@H](n1ncn(-c2ccc(OCC(F)(F)C(F)F)cc2)c1=O)[C@](O)(Cn1cncn1)c1ccc(F)cc1F	MIC	-	IFO6344	-	2 µg/mL
N#Cc1ccc(Nc2nc(Oc3ncnc4ccccc34)nc(N3CCN(C(c4ccccc4)c4ccccc4)CC3)n2)cc1C(F)(F)F	MIC	-	MTCC 343	-	25 µg/mL
COc1cc2ccnc3c2c(c1OC(=O)c1ccc(F)c(F)c1)N(C)C=C3	EC50	-	-	-	>15 µg/mL